Results of unrelated studies side by side (data: NIAID ChemDB).

Shared fields: target-level tests; species: Herpes simplex virus 2; target: Thymidine kinase; read-out: IC50

An empty or dashed field is not shown.

| smiles | strain | value |
|---|---|---|
| C#Cc1cn([C@@H]2O[C@H](CO)[C@@H](O)[C@@H]2F)c(=O)nc1N | G | >200 µM |
| Cc1cn([C@H]2C[C@H](O)[C@@H](CNS(=O)(=O)c3ccc([N+](=O)[O-])cc3)O2)c(=O)[nH]c1=O |  | 21 µM |
| CCOC(=O)/C=C/c1cn([C@@H]2O[C@H](CO)[C@@H](O)[C@@H]2F)c(=O)nc1N | G | >200 µM |
| Cc1cn([C@H]2C[C@H](O)[C@@H](CNS(=O)(=O)C(F)(F)F)O2)c(=O)[nH]c1=O |  | >200 µM |
| CCCCCCCCOP(=O)(O)OC[C@H]1O[C@@H](n2cc(CC)c(=O)[nH]c2=O)C[C@@H]1O |  | 1.5 µM |
| O=c1[nH]c(=O)n([C@@H]2O[C@H](CO)[C@@H](O)[C@@H]2F)cc1/C=C/Cl | G | >200 µM |
| O=c1[nH]c(=O)n([C@H]2C[C@H](O)[C@@H](CO)O2)cc1C(F)(F)F |  | 2 µM |
| CCc1cn([C@H]2C[C@H](O)[C@@H](CNC(=O)c3ccccc3)O2)c(=O)[nH]c1=O |  | 3.2 µM |
| CCC(=O)NC[C@H]1O[C@@H](n2cc(I)c(=O)[nH]c2=O)C[C@@H]1O |  | 21 µM |
| CCc1cn([C@H]2C[C@H](O)[C@@H](CNS(=O)(=O)c3ccccc3)O2)c(=O)[nH]c1=O |  | 4.6 µM |
| Cc1cn([C@H]2C[C@H](O)[C@@H](CNS(=O)(=O)c3ccc(Br)cc3)O2)c(=O)[nH]c1=O |  | 13 µM |
| CCc1cn([C@H]2C[C@H](O)[C@@H](CNC(=O)COc3ccccc3)O2)c(=O)[nH]c1=O |  | 0.28 µM |
| CC(C)CC(=O)NC[C@H]1O[C@@H](n2cc(I)c(=O)[nH]c2=O)C[C@@H]1O |  | 8 µM |
| C#C[C@H]1O[C@@H](n2cc(C)c(=O)[nH]c2=O)C[C@@H]1O | 333 | 100 µM |
| CCc1cn([C@H]2C[C@H](O)[C@@H](COP(=O)(O)OC(C)C)O2)c(=O)[nH]c1=O |  | 40 µM |

Again, the opening 2 rows:

| smiles | strain | value |
|---|---|---|
| C#Cc1cn([C@@H]2O[C@H](CO)[C@@H](O)[C@@H]2F)c(=O)nc1N | G | >200 µM |
| Cc1cn([C@H]2C[C@H](O)[C@@H](CNS(=O)(=O)c3ccc([N+](=O)[O-])cc3)O2)c(=O)[nH]c1=O |  | 21 µM |

Conditions beyond the fields shown may differ between rows. ICn: concentration for n% inhibition.